This assay relates to K. pneumoniae K66-45. The class given is cell-based. Here is the method:
After plating and grown overnight at 37° C., only single colonies, ignoring any touching the edges of the plate, were counted.
10^9 CFU K66-45 (Mueller-Hinton broth, no selection) was plated and grown overnight, 37° C. Only single colonies, ignoring any touching the edges of the plate, were counted.

Read-outs that look alike come from different tables or passages of the source.

With `CN(C[C@H](O)[C@@H](O)[C@H](O)[C@H](O)CO)C(=O)c1ccc(CN(Cc2ccccn2)Cc2ccccn2)nc1` [Example 26, 6-((bis(pyridin-2-ylmethyl)amino)methyl)-N-methyl-N-((2S,3R,4R,5R)-2,3,4,5,6-pentahydroxyhexyl)nicotinamide], the “Resistance/mutant frequency (number of colonies)” value (shortened to “Resistance/mutant frequency”) (inhibitor 15 mg/L, 4 mg/L MEM) came to 4; the “Resistance/mutant frequency” value (inhibitor 15 mg/L, 8 mg/L MEM) is reported as “n.c. (n.c. = no colonies)”; the “Resistance/mutant frequency” value (inhibitor 25 mg/L, 4 mg/L MEM) is “n.c. (n.c. = no colonies)”; the “Resistance/mutant frequency” value (inhibitor 25 mg/L, 8 mg/L MEM) is “n.c. (n.c. = no colonies)”; the “Resistance/mutant frequency” value (inhibitor 50 mg/L, 4 mg/L MEM) is on record as “n.c. (n.c. = no colonies)”; the “Resistance/mutant frequency” value (inhibitor 50 mg/L, 8 mg/L MEM) is on record as “n.c. (n.c. = no colonies)”.

Source of the values: patent US20210221791A1, “COMPOUNDS” (UNIVERSITETET I OSLO, priority 2016, published 2021).
